Source: US20160303056A1, “FASTING MIMICKING DIET (FMD) AND GLUCOSE LOWERING DRUGS PROTECT NORMAL CELLS AND GENERATE CANCER SENSITIZING CONDITIONS IN RESPONSE TO STANDARD AND HIGH GLUCOSE CONDITIONS INDUCED BY RAPAMYCIN AND DEXAMETHASONE” (UNIVERSITY OF SOUTHERN CALIFORNIA, priority 2015, published 2016)

How the values were obtained:
[1] = Circulating glucose levels in mice given rapamycin or dexamethasone, with or without insulin, STS or FMD; format: in vivo, mouse (C57BL/6); conditions: mice on Rapa or Dexa; insulin every 12 h for 48 h, or FMD, before DXR (FIG. 1B)
C57BL/6 mice = conditions: mouse, in vivo

Substance: insulin
- reduction of glucose levels / hyperglycemic state induced by rapamycin and dexamethasone [1]: significantly reduced
- reversal of the sensitizing effect of rapamycin/dexamethasone (C57BL/6 mice): partially reversed
- toxicity of doxorubicin (C57BL/6 mice): can reverse the toxicity of doxorubicin
